A mixed list of measured activities; the numbers were collected in NIAID ChemDB.

Common to all: growth or infection tests; species: Mycobacterium kansasii

a–b is a range or a potency band.

compound	endpoint	strain or isolate	conditions	method	value
N/C(=N\N=C\c1cc(Br)ccc1O)SCc1ccc(C(F)(F)F)cc1	MIC	ATCC 12478	21 d	broth dilution	62.5 µM
Fc1cccc(-n2c(=S)oc3ccc(F)cc3c2=S)c1	MIC	My 235/80	21 d	-	16 µM
O=C(NNC(=O)c1ccncc1)Nc1ccc(F)c(C(F)(F)F)c1	MIC100	My 6509/96	14 d	broth dilution	62.5 µM
C[C@@H](NC(=O)OCc1ccccc1)c1cnc(-c2ccc([N+](=O)[O-])cc2)[nH]1	MIC	My 6509/96	7 d	-	>125 µM
N/C(=N\N=C\c1ccccc1)SCc1cccc(Cl)c1	MIC	6509/96	21 d	broth dilution	62.5 µM
O=C(Nc1cccc(C(F)(F)F)c1)c1cc(Cl)ccc1OS(=O)(=O)c1ccccc1	MIC	6509/96	21 d	-	16 µM
O=C(Oc1cc(Cl)ccc1C(=O)Nc1ccc(Br)cc1)c1ccccc1	MIC	6509/96	7 d	broth dilution	2 µM
O=C(N[C@@H](Cc1ccccc1)c1cnc(-c2ccc([N+](=O)[O-])cc2)[nH]1)OCc1ccccc1	MIC	My 235/80	21 d	-	>62.5 µM
COc1cccc(CS/C(N)=N/N=C/c2cc(Cl)ccc2O)c1	MIC	ATCC 12478	21 d	broth dilution	32 µM
O=C(Nc1cccc(F)c1)c1ccc(Cl)cc1OS(=O)(=O)c1ccccc1	MIC	235/80	21 d	-	32 µM
O=C(Oc1ccc(Cl)cc1C(=O)Nc1ccc(Br)cc1)c1ccccc1	MIC	6509/96	7 d	broth dilution	2 µM
N/C(=N\N=C\c1cc(Cl)cc(Cl)c1O)SCc1ccc(Br)cc1	MIC	ATCC 12478	21 d	broth dilution	32 µM
O=C(Oc1cc(Cl)ccc1C(=O)Nc1cccc(Cl)c1)c1ccccc1	MIC	6509/96	21 d	broth dilution	8 µM
O=C(Oc1ccc(Cl)cc1C(=O)Nc1cccc(F)c1)c1cnccn1	MIC	6509/96	21 d	-	8 µM
Cc1ccc2oc(=S)n(-c3ccc(Cl)cc3)c(=S)c2c1	MIC	6509/96	21 d	-	8 µM
C[C@@H](NC(=O)OCc1ccccc1)c1cnc(-c2ccccc2)[nH]1	MIC	My 235/80	21 d	-	250 µM
N/C(=N\N=C\c1ccccc1O)SCc1ccc(Cl)cc1	MIC	ATCC 12478	14 d	broth dilution	32 µM
O=C(Oc1cc(Cl)ccc1C(=O)Nc1ccc(C(F)(F)F)cc1)c1ccccc1	MIC	235/80	7 d	broth dilution	1 µM
O=C(OCc1ccccc1)N1CCC[C@H]1c1cnc(-c2ccccc2)[nH]1	MIC	My 6509/96	7 d	-	62.5 µM
Cc1ccc2oc(=O)n(-c3ccc(Cl)cc3)c(=S)c2c1	MIC	6509/96	14 d	-	2 µM
O=C(Oc1ccc(Cl)cc1C(=O)Nc1ccc(F)cc1)c1cnccn1	MIC	235/80	7 d	-	4 µM
O=c1oc2ccc(Cl)cc2c(=S)n1-c1cccc(F)c1	MIC	My 235/80	21 d	-	16 µM
O=C(Nc1cccc(Cl)c1)c1ccc(Cl)cc1OS(=O)(=O)c1ccccc1	MIC	235/80	14 d	-	16 µM
O=C(N[C@@H](Cc1ccccc1)c1cnc(-c2ccccc2)[nH]1)OCc1ccccc1	MIC	My 235/80	7 d	-	>250 µM
O=C(Oc1cc(Cl)ccc1C(=O)Nc1ccc(Cl)cc1)c1cnccn1	MIC	235/80	7 d	-	2 µM
O=C(Nc1ccc(C(F)(F)F)cc1)c1cc(Cl)ccc1OS(=O)(=O)c1ccccc1	MIC	235/80	14 d	-	125 µM
O=C(Oc1cc(Cl)ccc1C(=O)Nc1cccc(F)c1)c1cnccn1	MIC	235/80	21 d	-	8 µM
O=C(Oc1cc(Cl)ccc1C(=O)Nc1ccc(F)cc1)c1ccccc1	MIC	235/80	14 d	broth dilution	4 µM
O=C(Oc1ccc(Cl)cc1C(=O)Nc1ccc(Br)cc1)c1cnccn1	MIC	235/80	14 d	-	2 µM
COc1ccc2oc(=O)n(-c3cccc(Cl)c3)c(=S)c2c1	MIC	6509/96	21 d	-	32 µM
O=C(Nc1cccc(F)c1)c1cc(Cl)ccc1OS(=O)(=O)c1ccccc1	MIC	6509/96	7 d	-	16 µM
N/C(=N\N=C\c1cc(Br)ccc1O)SCc1ccc(F)cc1	MIC	6509/96	21 d	broth dilution	32 µM
O=C(Nc1ccc(F)cc1)c1cc(Cl)ccc1OS(=O)(=O)c1ccccc1	MIC	6509/96	7 d	-	16 µM
O=C(Oc1cc(Cl)ccc1C(=O)Nc1ccc(C(F)(F)F)cc1)c1cnccn1	MIC	235/80	21 d	-	2 µM
O=C(Nc1ccc(Br)cc1)c1ccc(Br)cc1OS(=O)(=O)c1ccccc1	MIC	235/80	21 d	-	16 µM
Clc1ccc(Nc2nnc(-c3ccncc3)o2)cc1Cl	MIC100	My 6509/96	21 d	broth dilution	>125 µM
NC(=O)c1cnccn1	MIC	6509/96	7 d	-	250–1000 µM
O=C(NNC(=O)c1ccncc1)Nc1c(Cl)cc(Cl)cc1Cl	MIC100	My 235/80	7 d	broth dilution	>125 µM
C[C@H](NC(=O)OCc1ccccc1)c1cnc(-c2ccc([N+](=O)[O-])cc2)[nH]1	MIC	My 235/80	21 d	-	>125 µM
O=C(NNC(=O)c1ccncc1)Nc1cc(Cl)cc(Cl)c1	MIC100	My 6509/96	21 d	broth dilution	125 µM
O=C(Oc1ccc(Br)cc1C(=O)Nc1ccc(C(F)(F)F)cc1)c1cnccn1	MIC	235/80	7 d	-	2 µM

Repeating the final 2 entries:

compound	endpoint	strain or isolate	conditions	method	value
O=C(NNC(=O)c1ccncc1)Nc1cc(Cl)cc(Cl)c1	MIC100	My 6509/96	21 d	broth dilution	125 µM
O=C(Oc1ccc(Br)cc1C(=O)Nc1ccc(C(F)(F)F)cc1)c1cnccn1	MIC	235/80	7 d	-	2 µM

Lines come from different laboratories, so protocols vary. MIC50, MIC90 and the like: level of inhibition, or share of isolates inhibited. Blank or dashed fields: not listed here.